# Vif LAI: effect of single changes on growth against APOBEC3G

Source: Langley et al. 2025, preprint (doi:10.1101/2025.10.20.683452), supplementary data.

Protein: Vif of HIV-1 LAI (a laboratory-adapted subtype B strain). Residues 12-115 were scanned and are shown below; the first letter is residue 12.
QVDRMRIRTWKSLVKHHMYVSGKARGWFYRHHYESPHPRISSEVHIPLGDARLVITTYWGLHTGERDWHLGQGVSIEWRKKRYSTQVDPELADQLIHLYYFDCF

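Pooled viruses with one designed change each in Vif went through two 72 h rounds in SupT1 cells expressing APOBEC3G. Each of three replicates was sequenced after round two and set against the merged round-one pool. Changes do not touch integrase, since the pol overlap was removed.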

Scale: log2 enrichment, wild type = 0; negative values mean that the variant was depleted.
Each entry names the wild-type residue, its position and the residue put in its place.
This list holds changes to proline only.
The median of three replicates is given.
Input reads are the counts in the merged round-one pool, before selection.
The scan is noisy: the rank correlation of replicates is about 0.4 to 0.65, and variants with under about 50 input reads tend to read too high.
The authors note that some positive scores may be noise, and some enriched variants failed when tested singly.
Some changes are missing from the data or left out.

* G71P (input reads 127) -> -2.76
* T74P (input reads 93) -> 3.64
* G75P (input reads 352) -> -1.92
* R77P (input reads 342) -> 0.28
* D78P (input reads 546) -> -3.00
* W79P (input reads 408) -> -0.91
* G84P (input reads 1590) -> -1.89
* S86P (input reads 199) -> 2.49
* I87P (input reads 807) -> -4.71
* R90P (input reads 47) -> -2.64
* K91P (input reads 668) -> -4.36
* K92P (input reads 19) -> 2.00
* V98P (input reads 657) -> -1.76
* D99P (input reads 226) -> -3.74
* L102P (input reads 278) -> -3.63
* D104P (input reads 32) -> -2.77
* L106P (input reads 261) -> -1.93
* I107P (input reads 783) -> -0.11
* H108P (input reads 151) -> -3.80
* F112P (input reads 308) -> -2.92
* F115P (input reads 409) -> -1.94

The last 2 entries again:

change,input reads,median log2 enrichment
F112P,308,-2.92
F115P,409,-1.94